ChEMBL document CHEMBL4359835, “Design, Synthesis, and Anti-RNA Virus Activity of 6'-Fluorinated-Aristeromycin Analogues” (J Med Chem, 2019)

Key:
[1] = Cytotoxicity against African green monkey Vero E6 cells assessed as reduction in cell viability measured after 72 hrs by MTS assay; format: cell-based; conditions: chlorocebus sabaeus, Vero E6 cells (Vero C1008)
Summary of the method: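 Uninfected Vero E6 cells (10 000/well) were exposed to compound for 72 h, in parallel with SARS-CoV CPE assays. Read-out was MTS reagent for 2–2.5 h, then formaldehyde fixation and absorbance at 495 nm relative to untreated cells. Eight concentrations in quadruplicate; CC50 by nonlinear regression.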

Vero = test: Cytotoxicity against African green monkey Vero cells assessed as reduction in cell viability measured after 96 hrs by MTS assay; format: cell-based; conditions: chlorocebus sabaeus
Summary of the method: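 Uninfected Vero CCL81 cells (5000/well) were treated for 96 h in parallel with ZIKV CPE assays. MTS absorbance at 495 nm was read after 2–2.5 h and fixation, expressed relative to untreated cells. Eight concentrations, quadruplicate; CC50 by nonlinear regression.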

Nc1ncnc2c1ncn2[C@H]1[C@H](O)[C@H](O)[C@@H](CO)[C@@H]1F gave a CC50 at 72 h [1] of 1.32 to 3.97 µM and a CC50 (Vero) of 3.97 µM.
